PubChem BioAssay AID1224833, University of Georgia | 2016
The deposit covers about 12,000 reagents; this is a part drawn at random. About 5,600 of them (46%) count as active. 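Active calls cover z-scores past 1 in both directions, so they include lowered as well as raised rotavirus replication.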 A number with no mark means an inactive call. Reagent sequences are not shown.

- Purpose: 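Human genes whose knock-down alters rotavirus replication in monkey cells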 (primary screen)
- System: monkey MA104 kidney cells
- Reagents: siRNA pool against human genes, 50 nM
- Time to read-out: 48 h knock-down before infection; read 24 h after infection
- Treatment: infection with rotavirus strain RV3 two days after transfection; infectious dose for this stage not given
- Measured: 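z-score of rotavirus antigen signal per well, from a fluorescent immunoassay, relative to non-targeting control wells on the same plate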
- Direction: z-score vs non-targeting control: higher = more rotavirus replication than with non-targeting control
- Active means: In these data the active calls have z-score vs non-targeting control at about -1 or lower, or at about 1 or higher
- Calls: active = z-score beyond 1 either way; inactive = z-score within 1 of zero

Target gene	z-score vs non-targeting control
KLHL4 (kelch like family member 4)	-0.321
NPY5R (neuropeptide Y receptor Y5)	-0.759
OR10A7 (olfactory receptor family 10 subfamily A member 7)	0.671
TSPYL6 (TSPY like 6)	-1.88 (active)
CLUL1 (clusterin like 1)	0.263
ERI3 (ERI1 exoribonuclease family member 3)	-0.667
SV2C (synaptic vesicle glycoprotein 2C)	1.55 (active)
OR1Q1 (olfactory receptor family 1 subfamily Q member 1)	0.316
RAB22A (RAB22A, member RAS oncogene family)	-2.37 (active)
PKHD1L1 (PKHD1 like 1)	-1.3 (active)
DAW1 (dynein assembly factor with WD repeats 1)	-0.655
KLRC2 (killer cell lectin like receptor C2)	-0.316
KRT73 (keratin 73)	-1.01 (active)
TM9SF1 (transmembrane 9 superfamily member 1)	0.28
C1QTNF4 (C1q and TNF related 4)	-2 (active)
FOXF1 (forkhead box F1)	1.42 (active)
SLC35F5	-0.278
PSMA3 (proteasome 20S subunit alpha 3)	0.619
HDLBP (high density lipoprotein binding protein)	-1.41 (active)
RAD21 (RAD21 cohesin complex component)	-2.26 (active)
NHLH1 (nescient helix-loop-helix 1)	-1.12 (active)
ZNF311 (zinc finger protein 311)	-2.14 (active)
CD163 (CD163 molecule)	-1.64 (active)
TREML4 (triggering receptor expressed on myeloid cells like 4)	1.47 (active)
SUGP2 (SURP and G-patch domain containing 2)	1.77 (active)
NADSYN1 (NAD synthetase 1)	-6.81 (active)
ADD2 (adducin 2)	0.414
BTN3A2 (butyrophilin subfamily 3 member A2)	-0.693
EPS8L2 (EPS8 signaling adaptor L2)	-0.775
ZNF560 (zinc finger protein 560)	0.531
WDR7 (WD repeat domain 7)	1.03 (active)
ATF6B (activating transcription factor 6 beta)	-0.977
CCDC15 (coiled-coil domain containing 15)	-1.53 (active)
NRK (Nik related kinase)	3.49 (active)
NPAP1 (nuclear pore associated protein 1)	1
KLHDC2 (kelch domain containing 2)	-0.639
GNG12 (G protein subunit gamma 12)	0.0757
SEC24B (SEC24 homolog B, COPII component)	0.296
EVX1 (even-skipped homeobox 1)	0.689
POU2AF2 (POU class 2 homeobox associating factor 2)	1.84 (active)
GBP7 (guanylate binding protein 7)	0.732
SOX4 (SRY-box transcription factor 4)	0.643
RALGAPB (Ral GTPase activating protein non-catalytic subunit beta)	1.22 (active)
ARVCF (ARVCF delta catenin family member)	-2.58 (active)
TMEM91 (transmembrane protein 91)	0.527
SLC5A6	-0.865
PCDHGA1 (protocadherin gamma subfamily A, 1)	0.119
SEMA3A (semaphorin 3A)	-0.13
NOTCH4 (notch receptor 4)	-1.18 (active)
TACSTD2 (tumor associated calcium signal transducer 2)	0.178
CRYGD (crystallin gamma D)	-0.183
MYG1 (MYG1 exonuclease)	-0.654
MRPL27 (mitochondrial ribosomal protein L27)	0.286
ZCCHC3 (zinc finger CCHC-type containing 3)	-0.609
CX3CL1 (C-X3-C motif chemokine ligand 1)	-1.75 (active)
FNBP4 (formin binding protein 4)	0.214
ATP6V1C2 (ATPase H+ transporting V1 subunit C2)	1.12 (active)
WT1 (WT1 transcription factor)	-2.28 (active)
GTF2B (general transcription factor IIB)	-0.772
STEAP1 (STEAP family member 1)	1.32 (active)
TNFRSF1B (TNF receptor superfamily member 1B)	-1.59 (active)
CACNA2D4	-0.863
MLIP (muscular LMNA interacting protein)	-0.252
H2AC17 (H2A clustered histone 17)	0.0555
CXCL5 (C-X-C motif chemokine ligand 5)	0.0103
SLC66A1	0.0063
C1QTNF7 (C1q and TNF related 7)	-1.82 (active)
DNAJC7 (DnaJ heat shock protein family (Hsp40) member C7)	-1.66 (active)
HEMK2	-1.05 (active)
KLK13 (kallikrein related peptidase 13)	-0.795
ZSCAN32 (zinc finger and SCAN domain containing 32)	-0.34
WDR26 (WD repeat domain 26)	-0.277
TAAR9 (trace amine associated receptor 9)	-1.36 (active)
GSTO2 (glutathione S-transferase omega 2)	0.81
MAL2 (mal, T cell differentiation protein 2)	-0.0601
ABCF1 (ATP binding cassette subfamily F member 1)	-1.42 (active)
DEUP1 (deuterosome assembly protein 1)	0.569
MLLT11 (MLLT11 transcription factor 7 cofactor)	-0.128
MSL3 (MSL complex subunit 3)	1.67 (active)
PRRT1 (proline rich transmembrane protein 1)	-1.78 (active)
ATP5F1B (ATP synthase F1 subunit beta)	1.34 (active)
IL9R (interleukin 9 receptor)	1.7 (active)
SKIL (SKI like proto-oncogene)	0.839
PLS1 (plastin 1)	-0.306
UGCG (UDP-glucose ceramide glucosyltransferase)	-2.01 (active)
ARID3C (AT-rich interaction domain 3C)	0.773
PPDPF	-1.78 (active)
MAS1 (MAS1 proto-oncogene, G protein-coupled receptor)	0.546
PTCRA (pre T cell antigen receptor alpha)	0.337
TAFA4 (TAFA chemokine like family member 4)	0.32
ZNF85 (zinc finger protein 85)	1.12 (active)
EEF1D (eukaryotic translation elongation factor 1 delta)	-0.563
RIPOR1 (RHO family interacting cell polarization regulator 1)	0.842
QSER1 (glutamine and serine rich 1)	-2.38 (active)
COL20A1 (collagen type XX alpha 1 chain)	0.519
CLSTN1 (calsyntenin 1)	0.363
WDR49 (WD repeat domain 49)	-1.19 (active)
OPRL1 (opioid related nociceptin receptor 1)	1.5 (active)
NPC2 (NPC intracellular cholesterol transporter 2)	-1.09 (active)
GOT1L1 (glutamic-oxaloacetic transaminase 1 like 1)	-1.57 (active)
VPS37C (VPS37C subunit of ESCRT-I)	-1.76 (active)
CXCL6 (C-X-C motif chemokine ligand 6)	-0.013
IGFBP2 (insulin like growth factor binding protein 2)	0.0075
DRC1 (dynein regulatory complex subunit 1)	-1.65 (active)
MRPS26 (mitochondrial ribosomal protein S26)	-0.719
C6orf118 (chromosome 6 open reading frame 118)	-0.787
TPM1 (tropomyosin 1)	-1.81 (active)
DCTD (dCMP deaminase)	-0.0109
MNS1 (meiosis specific nuclear structural 1)	-0.357
ZSWIM3 (zinc finger SWIM-type containing 3)	-1.99 (active)
